Compound potency records, mixed from different reports. Data source: NIAID ChemDB in PubChem.

Shared fields: whole-cell or culture tests; organism: HIV-1

Rows are shuffled and stem from different studies. a–b is a range or a potency band. ECn is the concentration giving n% inhibition of infection, replication or growth. Blank or dashed fields: not listed here.

SMILES,cells,read-out,strain,changes,method,setting,result
c1cc(CN2CCCNCCNCCCNCC2)ccc1CN1CCCNCCNCCCNCC1,MT-4,EC50,IIIB,,cytopathic effect / MTT,,0.005 µg/mL
CC(C)=CCN(C(C)C(=O)O)S(=O)(=O)c1cc(Cl)ccc1N,MT-4,EC50,,,cytopathic effect / MTT,,109 µM
Nc1nc(NC2CC2)c2ncn([C@H]3C=C[C@@H](CO)C3)c2n1,Macrophage + Monocytes/macrophages,EC50,SF162,,p24,,>0.5 µM
CC(C)[C@H](NC(=O)N(C)Cc1ccccn1)C(=O)N[C@@H](Cc1ccccc1)[C@H](O)[C@H](O)[C@H](Cc1ccccc1)NC(=O)[C@@H](NC(=O)N(C)Cc1ccccn1)C(C)C,MT-4,EC50,NL4-3,PR-R8K,p24,,4 µM
Nc1ccn([C@H]2CC[C@@H](CO)O2)c(=O)n1,CEM + CEM-SS,EC50,RF,,cytopathic effect / MTT,,0.0947 µM
C1CNCCNCCCN(CCCN2CCCNCCNCCCNCC2)CCNC1,MT-4,EC50,LAV,,syncytia,,1 µM
CC(=O)OC[C@@H]1C[C@H](n2cnc3c(N)ncnc32)CO1,MT-4,EC50,,,,,10–20 µM
CN(C)C(=O)C(=O)N1CCOCC1Cn1c(=O)c(O)c2n(c1=O)CCN(Cc1ccc(F)cc1)C2=O,MT-4,EC50,,,p24,,<10 µM
Nc1ccn([C@@H]2O[C@H](CO)C[C@H]2F)c(=O)n1,H9,EC50,IIIB,,p24 / ELISA,,1 µg/mL
C1CNCCCNCCNCCCNC1,MT-4,EC50,LAV,,syncytia,,10 µM
CN(C)c1nc(N)nc2c1ncn2[C@H]1C[C@H](N=[N+]=[N-])[C@@H](CO)O1,MT-4,EC50,IIIB,,cytopathic effect,,12 µM
C=CCN(/C=C/c1ccccc1Br)C(C)=O,C8166,EC50,IIIB,,syncytia,,75 µM
Cc1cn([C@H]2C[C@H](N=[N+]=[N-])[C@@H](CO)O2)c(=O)[nH]c1=O,CEMx174 + CEM,EC50,IIIB,,cytopathic effect / XTT,,0.03 µM
CCCCOc1nc(N)nc2c1ncn2[C@H]1C[C@H](N=[N+]=[N-])[C@@H](CO)O1,MT-4,EC50,IIIB,,cytopathic effect,,19 µM
O=C1c2c(O)c(=O)n(C34CC5CC(CC(O)(C5)C3)C4)c(=O)n2CCN1Cc1ccc(F)cc1,MT-4,EC50,,,p24,,<10 µM
[N-]=[N+]=N[C@H]1C[C@H](n2cnc3c(OCc4ccccc4)nc(N)nc32)O[C@@H]1CO,MT-4,EC50,IIIB,,cytopathic effect,,8 µM
c1ccc(CNCCCCCN2CCCN(CCCCCNCc3ccccc3)CCN(CCCCCNCc3ccccc3)CCCN(CCCCCNCc3ccccc3)CC2)cc1,MT-4,EC50,LAV,,syncytia,,1 µM
CCN(CC)c1nc(N)nc2c1ncn2[C@H]1C[C@H](N=[N+]=[N-])[C@@H](CO)O1,MT-4,EC50,IIIB,,cytopathic effect,,>200 µM
CCOCCN1CCN(c2nn(C)c3ccc(-c4nc5cc(C)c([C@H](OC(C)(C)C)C(=O)O)c(-c6ccc(Cl)cc6)c5s4)cc23)CC1,MT-4,EC50,IIIB,,luminescence,,0.485 µM
c1ccc(CNCc2ccc(CN3CCCNCCNCCCNCC3)cc2)nc1,PBMC,EC50,BaL,,p24,,>6.25 µM
CC=CCN1C(C)C(=O)Nc2ccc(Cl)cc2S1(=O)=O,MT-4,EC50,,,cytopathic effect / MTT,,0.7 µM
CC(=O)N(/C=C/c1ccccc1Br)Cc1ccccc1,C8166,EC50,IIIB,,syncytia,,9 µM
C=C(C)CN1C(C)C(=S)Nc2ccc(Cl)cc2S1(=O)=O,MT-4,EC50,,,cytopathic effect / MTT,,>47 µM
CC[C@@]1(O)C(=O)OCc2c1cc1n(c2=O)Cc2cc3c([N+](=O)[O-])cccc3nc2-1,U-937,EC50,IIIB,,p24 / ELISA,,0.02 µM
COc1ccc(CN[C@@H](C(=O)N[C@H](C(=O)NCc2nc3ccccc3[nH]2)C(C)C)[C@H](O)[C@H](Cc2ccccc2)NC(=O)[C@@H](NC(=O)[C@@](C)(O)c2ccccc2)C(C)(C)C)cc1,MT-4,EC50,IIIB,,p24,,0.0079 µM
CC(=O)N(/C=C/c1ccccc1Br)C(C)=O,C8166,EC50,IIIB,,syncytia,,8 µM
Cc1cn([C@H]2C[C@H](O)[C@@](C#N)(COP(=O)(O)OP(=O)(O)OP(=O)(O)O)C2)c(=O)[nH]c1=O,PBMC,EC50,,,fluorescence,,2.1 µM
Nc1ccc(Cl)cc1S(=O)(=O)NCC(=O)O,MT-4,EC50,,,cytopathic effect / MTT,,>200 µM
Cc1cn([C@H]2C=C[C@@H](COP(=O)(OCc3ccccc3)OCc3ccccc3)O2)c(=O)[nH]c1=O,MT-4,EC50,,,,,>100 µM
Nc1nc(N)c2ncn([C@@H]3O[C@H](CO)[C@@H](F)[C@H]3O)c2n1,H9,EC50,IIIB,,p24 / ELISA,,10 µg/mL
CCCNc1nc(N)nc2c1ncn2[C@H]1C[C@H](N=[N+]=[N-])[C@@H](CO)O1,MT-4,EC50,IIIB,,cytopathic effect,,12 µM
O=C1c2c(O)c(=O)n(-c3ccc(N4CCOCC4)cc3)c(=O)n2CCN1Cc1ccc(F)cc1,MT-4,EC95,,,p24,,<10 µM
Cc1cn([C@H]2C[C@H](N=[N+]=[N-])[C@@H](CO)O2)c(=O)[nH]c1=O,H9,EC50,IIIB,,p24 / ELISA,,0.01 µM
O=C(NCCCN1CCCN(CCCNC(=O)OCc2ccccc2)CCCN(CCCNC(=O)OCc2ccccc2)CCN(CCCNC(=O)OCc2ccccc2)CCC1)OCc1ccccc1,MT-4,EC50,LAV,,syncytia,,>50 µM
[N-]=[N+]=N[C@H]1C[C@H](n2cnc3c(OC4CCC4)nc(N)nc32)O[C@@H]1CO,MT-4,EC50,IIIB,,cytopathic effect,,15 µM
O=C1N(Cc2ccc(CO)cc2)[C@H](Cc2ccccc2)[C@H](O)[C@@H](O)[C@@H](Cc2ccccc2)N1Cc1ccc(CO)cc1,PBMC,EC50,Clinical isolate N,,p24,,<0.018 µM
COCCNC(=O)[C@@H](NC(=O)[C@H](Cc1ccc(OC)c(OC)c1OC)C[C@H](O)[C@H](Cc1ccccc1)NC(=O)OC(C)(C)C)C(C)C,Macrophages HIV-1 + Macrophage,EC50,,,,"chronic infection, inside macrophages",<1 µM
CCN(/C=C/c1ccc(OC)cc1OC)C(C)=O,C8166,EC50,IIIB,,syncytia,,19 µM
Cc1cn([C@H]2C[C@H](N=[N+]=[N-])[C@@H](COP(=O)(OCc3ccccc3)OCc3ccccc3)O2)c(=O)[nH]c1=O,MT-4,EC50,,,,,0.98 µM
C1CNCCNCCCN(CCCN2CCCNCCNCCCNCC2)CCNC1,MT-4,EC50,RF,,cytopathic effect / MTS,,0.497 µM
CCN1CC(=O)Nc2c([N+](=O)[O-])cc(Cl)cc2S1(=O)=O,MT-4,EC50,,,cytopathic effect / MTT,,>200 µM
CN1CCN(CCCN2c3ccccc3Sc3ccc(N)cc32)CC1,CD4+HeLa + HELA CD4+,EC50,,,syncytia,,5.8 µM
CCC[C@@]1(CCc2ccccc2)CC(O)=C([C@H](CC)c2cccc(NS(=O)(=O)c3ccc(C(F)(F)F)cn3)c2)C(=O)O1,PBMC,EC50,Isolate 301-1X ritonavir-susceptible,Ritonavir-resistant protease,p24,,0.075 µM
CC(=O)N1CCC(N2CCC(c3nn(C)c4ccc(-c5nc6cc(C)c([C@H](OC(C)(C)C)C(=O)O)c(-c7ccc(Cl)cc7)c6s5)nc34)CC2)C1,MT-4,EC50,IIIB,,luminescence,,0.002 µM
Cc1cn([C@H]2C=C[C@@H](CO)O2)c(=O)[nH]c1=O,MT-4,EC50,,,cytopathic effect,,0.33 µM
CC(C)=CCN1C(C)Cn2c(=O)[nH]c3cc(Cl)cc(c32)S1(=O)=O,MT-4,EC50,,,cytopathic effect / MTT,,100 µM
O=C1c2c(O)c(=O)n(C3CCCCN(Cc4ccccc4)C3=O)c(=O)n2CCN1Cc1ccc(F)cc1,MT-4,EC95,,,p24,,<10 µM
CCN(/C=C/c1ccccc1Cl)C(C)=O,C8166,EC50,IIIB,,syncytia,,91 µM
CC(C)=CCN1Cc2cc(Cl)cc3[nH]c(=S)n(c23)C[C@@H]1C,MT-4,EC50,,,cytopathic effect / MTT,,0.03 µM
[N-]=[N+]=N[C@H]1C[C@H](n2cnc3c(Oc4ccccc4)nc(N)nc32)O[C@@H]1CO,MT-4,EC50,IIIB,,cytopathic effect,,28 µM
CC(=O)N1CC[C@@H](N2CCC(c3nn(C)c4ccc(-c5nc6cc(C)c([C@H](OC(C)(C)C)C(=O)O)c(-c7ccc(Cl)cc7)c6s5)nc34)CC2)C1,MT-4,EC50,IIIB,,luminescence,,0.002 µM
O=c1oc(-c2ccccc2)cc(O)c1C(CC1CC1)SC1CCCCC1,H9,EC50,IIIB,,p24,,25 µM
Cc1cn([C@H]2C=C[C@@H](COP(=O)(O)O)O2)c(=O)[nH]c1=O,MT-4,EC50,,,cytopathic effect,,0.71 µM
COC(=O)N1CCC(N2CCC(c3cn(C)c4ccc(-c5nc6cc(C)c([C@H](OC(C)(C)C)C(=O)O)c(-c7ccc(Cl)cc7)c6s5)cc34)CC2)C1,MT-4,EC50,IIIB,,luminescence,,0.007 µM
CC(C)=CCN1c2cc(Cl)cc3[nH]c(=S)n(c23)C[C@@H]1C,MT-4,EC50,,RT-K70R L100I,,,<0.1 µM
Nc1nc(=O)n([C@H]2CS[C@@H](CO)O2)cc1[N+](=O)[O-],PBMC,EC50,LAV,,RT activity,,>100 µM
Cc1cc2nc(-c3ccc4c(n3)c(C3CCN(C5CN(O)C5)CC3)nn4C)sc2c(-c2ccc(Cl)cc2)c1[C@H](OC(C)(C)C)C(=O)O,MT-4,EC50,IIIB,,luminescence,,0.011 µM
O=C1c2c(O)c(=O)n(CC(c3ccncc3)N3CCOCC3)c(=O)n2CCN1Cc1ccc(F)cc1,MT-4,EC50,,,p24,,<10 µM
Cc1cc2nc(-c3ccc4c(n3)c(C3CCN(C5COC5)CC3)cn4C)sc2c(-c2ccc(Cl)cc2)c1[C@H](OC(C)(C)C)C(=O)O,MT-4,EC50,IIIB,,luminescence,,0.006 µM
CC1C(=O)Nc2ccc(Cl)cc2S(=O)(=O)N1Cc1c(F)cccc1F,MT-4,EC50,,,cytopathic effect / MTT,,0.2 µM
Cc1cc2nc(-c3ccc4c(c3)c(C3CCN(C[C@@H]5CCN5C)CC3)nn4C)sc2c(-c2ccc(Cl)cc2)c1[C@H](OC(C)(C)C)C(=O)O,MT-4,EC50,IIIB,,luminescence,,0.011 µM
O=C1c2c(O)c(=O)n(C3CN4CCC3CC4)c(=O)n2CCN1Cc1ccc(F)cc1,MT-4,EC95,,,p24,,<10 µM
Cc1cc2nc(-c3ccc4c(c3)c(N3CC5(CCCC5)C3)nn4C)sc2c(-c2ccc(Cl)cc2)c1[C@H](OC(C)(C)C)C(=O)O,MT-4,EC50,IIIB,,luminescence,,0.061 µM
Nc1ccn([C@H]2C=C(F)[C@@H](CO)O2)c(=O)n1,H9,EC50,IIIB,,p24 / ELISA,,1 µg/mL

A second listing of 4 rows from above:

SMILES | cells | read-out | strain | changes | method | setting | result
O=C1c2c(O)c(=O)n(C3CCCCN(Cc4ccccc4)C3=O)c(=O)n2CCN1Cc1ccc(F)cc1 | MT-4 | EC95 |  |  | p24 |  | <10 µM
[N-]=[N+]=N[C@H]1C[C@H](n2cnc3c(OCc4ccccc4)nc(N)nc32)O[C@@H]1CO | MT-4 | EC50 | IIIB |  | cytopathic effect |  | 8 µM
CC=CCN1C(C)C(=O)Nc2ccc(Cl)cc2S1(=O)=O | MT-4 | EC50 |  |  | cytopathic effect / MTT |  | 0.7 µM
Cc1cn([C@H]2C=C[C@@H](COP(=O)(OCc3ccccc3)OCc3ccccc3)O2)c(=O)[nH]c1=O | MT-4 | EC50 |  |  |  |  | >100 µM